The values below come from publication PMC10998830, “Allosteric activation unveils protein-mass modulation of ATP phosphoribosyltransferase product release” (Communications Chemistry, 2024).

Usually Km stands for the concentration of substrate that gives half-maximal velocity. In general, kcat refers to the number of substrate molecules converted per active site and unit of time at saturation.

Assay in all cases: purified protein
The subject of series [1] is Nc1ncnc2c1ncn2[C@@H]1O[C@H](COP(=O)(O)OP(=O)(O)OP(=O)(O)O)[C@@H](O)[C@H]1O. Conditions: 25 °C, pH 8.5, 3.2 mM PRPP, 15 mM MgCl2, 100 mM KCl, unlabelled enzyme.
Series [2] relates to Nc1ncnc2c1ncn2[C@@H]1O[C@H](COP(=O)(O)OP(=O)(O)O)[C@@H](O)[C@H]1O. Conditions: 25 °C, pH 8.5, 3.2 mM PRPP, 15 mM MgCl2, 100 mM KCl, unlabelled enzyme.
For series [3], the system named is O=P(O)(O)OC[C@H]1O[C@H](OP(=O)(O)OP(=O)(O)O)[C@H](O)[C@@H]1O. As to conditions: 25 °C, pH 8.5, 6.4 mM ATP, 15 mM MgCl2, 100 mM KCl, unlabelled enzyme.

For “AbATPPRT (Acinetobacter baumannii ACICU; R70A)”, the Michaelis-Menten constant (Km) in series [1] is 700 ± 100 µM; in series [2] it was 1300 ± 100 µM; in series [3], 300 ± 40 µM. Besides, the kcat was found to be 2.17 ± 0.06 s⁻¹ in series [1], 2.47 ± 0.06 s⁻¹ in series [2] and 2.17 ± 0.06 s⁻¹ in series [3].
